Compound potency records, mixed from different reports. Data source: NIAID ChemDB in PubChem.

Common to all: growth or infection tests; species: HIV-1; cell line: MT-4; read-out: EC50

Blank or dashed fields: not listed here. Rows are shuffled and stem from different studies. ECn: concentration that inhibits the pathogen or its effect by n%.

Cc1c(CCC2CCCCC2)nc(SCC(=O)c2ccc(O)cc2)[nH]c1=O ; strain or isolate: IIIB ; read by: MTT ; value: 0.24 µM
CC(C)(C)NC(=O)[C@@H]1C[C@@H]2CCCC[C@@H]2CN1C[C@@H](OC(=O)CCCCO[C@@H]1[C@@H](O)[C@@H](O)O[C@H](CO)[C@H]1O)[C@H](Cc1ccccc1)NC(=O)[C@H](CC(N)=O)NC(=O)c1ccc2ccccc2n1 ; strain or isolate: IIIB ; read by: cytopathic effect / MTT ; value: 0.062 µM
Cc1ccnc2c1NC(=O)c1cccnc1N2C1CC1 ; strain or isolate: HxB2D(RT-D67G) ; mutations: RT-D67G ; read by: RT activity ; value: 0.012 µM
CC(Sc1nc2ncccc2n1-c1ccc(C2CC2)c2ccccc12)C(=O)Nc1ccc(C(N)=O)cc1Cl ; strain or isolate: RES056 ; read by: MTT ; value: >2.01 µM
O=c1[nH]cnc2c1ncn2[C@H]1CC[C@@H](CO)O1 ; strain or isolate: NL4-3 ; mutations: +Vpx ; value: 2.692 µM
C#Cc1ccc(Nc2nccc(Oc3c(C)cc(-c4cn(CCc5ccccc5)nn4)cc3C)n2)cc1 ; strain or isolate: IIIB ; mutations: E138K ; read by: MTT ; value: ≥2.05 µM
NS(=O)(=O)c1ccc(NC(=O)CSc2nncnc2-c2cccc3ccccc23)c(Br)c1 ; read by: MTT ; value: 0.018 µM
CCc1c(C(C)CC2CCCCC2)nc(SCC(=O)c2ccccc2)[nH]c1=O ; strain or isolate: IIIB ; read by: MTT ; value: 0.09 µM
C=C1[C@H](CO)[C@@H](O)C[C@@H]1n1cnc2c(=O)[nH]c(N)nc21 ; strain or isolate: IIIB ; mutations: Y181C ; read by: MTT ; value: 0.012 µM
CC(C)(C)NC(=O)[C@@H]1C[C@@H]2CCCC[C@@H]2CN1C[C@@H](O)[C@H](Cc1ccccc1)NC(=O)[C@H](CC(N)=O)NC(=O)c1ccc2ccccc2n1 ; strain or isolate: NL4-3.C7 (PR L10F M46I I84V) ; mutations: PR-L10F M46I I84V ; read by: p24 ; value: 0.006 µM
C1CNCCNCCCN(CCCC2CNCCCNCCNCCCN2)CCNC1 ; strain or isolate: IIIB ; read by: cytopathic effect / MTT ; value: 1.96 µM
Cc1cn([C@H]2C[C@H](N=[N+]=[N-])[C@@H](CO)O2)c(=O)[nH]c1=O ; strain or isolate: IIIB ; read by: cytopathic effect ; value: 0.002 µM
CC(C)(C)NC(=O)[C@@H]1CC2CCCCC2CN1C[C@@H](OC(=O)CCC(=O)O[C@H]1[C@@H](C2COC(C)(C)O2)OC2OC(C)(C)O[C@H]21)[C@H](Cc1ccccc1)NC(=O)[C@H](CC(N)=O)NC(=O)c1ccc2ccccc2n1 ; strain or isolate: IIIB ; read by: cytopathic effect / MTT ; value: 0.15 µM
CCNc1nc(N(C)C)nc2c1[nH]c[n+]2C[C@@H](C)OCP(=O)(O)O ; strain or isolate: IIIB ; read by: cytopathic effect / MTT ; value: 6.23 ± 4.48 µg/mL
O=c1[nH]cnc2c1ncn2[C@H]1CC[C@@H](CO)O1 ; strain or isolate: XM-ABC-resistant ; mutations: RT-K65R L74V M184V Y115F ; read by: p24 ; value: <52 µM
O=c1[nH]cnc2c1ncn2[C@H]1CC[C@@H](CO)O1 ; strain or isolate: IIIB ; read by: cytopathic effect / MTT ; value: 35.9 µM
C#Cc1ccc(Nc2nccc(Oc3c(C)cc(-c4cn(-c5ccc(C(=O)O)cc5)nn4)cc3C)n2)cc1 ; strain or isolate: IIIB ; mutations: Y181C ; read by: MTT ; value: 0.84 µM
C[C@H](CC1CNC2C1OC(N)CN2N)OCP(=O)(O)O ; strain or isolate: IIIB ; read by: cytopathic effect / MTT ; value: >100 µg/mL
C#Cc1ccc(Nc2nccc(Oc3c(C)cc(-c4cn(Cc5ccc(C(N)=O)cc5)nn4)cc3C)n2)cc1 ; strain or isolate: IIIB ; mutations: Y181C ; read by: MTT ; value: 0.56 µM
COc1ccc2ccc(OC(C)=O)c(Cc3c[nH]c4ccc(Br)cc34)c2c1 ; read by: MTT ; value: 8 µM
COc1ccc(C(=O)CSc2nc(C(C)CC3CCCCC3)c(C)c(=O)[nH]2)cc1 ; strain or isolate: IIIB ; read by: MTT ; value: 0.93 µM
CC(=O)Oc1ccc2ccccc2c1Cc1c(C)[nH]c2ccccc12 ; read by: MTT ; value: 27 µM
NC(=O)c1ccc(NC(=O)CSc2nc3ncccc3n2-c2ccc(C3CC3)c3ccccc23)c(Br)c1 ; strain or isolate: RES056 ; read by: MTT ; value: >0.66 µM
Cc1cn([C@H]2C[C@H](N=[N+]=[N-])[C@@H](CO)O2)c(=O)[nH]c1=O ; strain or isolate: A17 ; mutations: RT-K103N Y181C ; read by: cytopathic effect / MTT ; value: 0.02 µM
Nc1nc(=O)n([C@H]2CO[C@@H](CO)S2)cc1F ; strain or isolate: HXB2D ; read by: RT activity ; value: 4.8 µM
C#Cc1ccc(Nc2nccc(Oc3c(C)cc(-c4cn(-c5ccc(C(=O)OC)cc5)nn4)cc3C)n2)cc1 ; strain or isolate: IIIB ; mutations: E138K ; read by: MTT ; value: 0.16 µM
Cc1cn([C@H]2C[C@H](N=[N+]=[N-])[C@@H](CO)O2)c(=O)[nH]c1=O ; strain or isolate: IIIB ; read by: MTT ; value: 0.0019 µM
C1CNCCNCCCN[C@H]([C@@H]2CNCCCNCCNCCCN2)CNC1 ; strain or isolate: HE ; read by: cytopathic effect / MTT ; value: 0.29 µM
COC(=O)c1ccc(NC(=O)CSc2nc3ncccc3n2-c2ccc(C3CC3)c3ccccc23)c([N+](=O)[O-])c1 ; strain or isolate: RES056 ; read by: MTT ; value: >2.46 µM
C#Cc1ccc(Nc2nccc(Oc3c(C)cc(-c4cn(Cc5cccc(C(=O)OC)c5)nn4)cc3C)n2)cc1 ; strain or isolate: IIIB ; mutations: Y188L ; read by: MTT ; value: >4.78 µM
CC(C)(C)NC(=O)[C@@H]1CN(Cc2cccnc2)CCN1C[C@H](C[C@@H](Cc1ccccc1)C(=O)N[C@H]1c2ccccc2C[C@H]1O)OC(=O)CCCCNC(=O)O[C@H]1[C@@H](C2COC(C)(C)O2)OC2OC(C)(C)O[C@H]21.O=C(O)C(F)(F)F.O=C(O)C(F)(F)F ; strain or isolate: IIIB ; read by: cytopathic effect / MTT ; value: 42 µM
COc1c(O)c(I)c2c(c1OC)-c1c(c(I)c(O)c(OC)c1OC)C[C@H](C)[C@H](C)C2 ; strain or isolate: IIIB ; read by: cytopathic effect / MTT ; value: 0.26 µM
CCc1c(Sc2cc(C)cc(C)c2)n(COCCOP(=O)(O)OC[C@H]2O[C@@H](n3cc(C)c(=O)[nH]c3=O)C[C@@H]2N=[N+]=[N-])c(=O)[nH]c1=O ; strain or isolate: IIIB ; read by: cytopathic effect ; value: 0.002 µM
Nc1ccn([C@@H]2CO[C@H](CO)S2)c(=O)n1 ; strain or isolate: HXB2D ; read by: RT activity ; value: 3 µM
CC(C)(C)NC(=O)[C@@H]1CC2CCCCC2CN1C[C@@H](OC(=O)CC(=O)O[C@H]1[C@@H](C2COC(C)(C)O2)OC2OC(C)(C)O[C@H]21)[C@H](Cc1ccccc1)NC(=O)[C@H](CC(N)=O)NC(=O)c1ccc2ccccc2n1 ; strain or isolate: IIIB ; read by: cytopathic effect / MTT ; value: 0.041 µM
C#Cc1ccc(Nc2nccc(Oc3c(C)cc(-c4cn(Cc5cccc([N+](=O)[O-])c5)nn4)cc3C)n2)cc1 ; strain or isolate: IIIB ; mutations: Y181C ; read by: MTT ; value: 4.44 µM
CC(C)Nc1cccnc1N1CCN(C(=O)c2cc3cc(NS(C)(=O)=O)ccc3[nH]2)CC1 ; strain or isolate: HXB2D ; read by: RT activity ; value: 0.004 µM
C1CNCCNCCCN(CCCN2CCCNCCNCCCNCC2)CCNC1 ; strain or isolate: clinical isolate A012D AZT-resistant ; read by: p24 / ELISA ; value: 0.25 µM
CCc1c(Sc2cc(C)cc(C)c2)n(COCCO)c(=O)[nH]c1=O ; strain or isolate: IIIB ; read by: cytopathic effect ; value: 0.007 µM
Cc1ccnc2c1NC(=O)c1cccnc1N2C1CC1 ; strain or isolate: IIIB ; read by: MTT ; value: 0.26 µM
CC(C)=CCN1Cc2cccc3[nH]c(=S)n(c23)C[C@@H]1C ; strain or isolate: 1506-RS (RT-Y188L) ; mutations: RT-Y188L ; read by: cytopathic effect / MTT ; value: >100 µM
Cc1cn([C@H]2C[C@H](N=[N+]=[N-])[C@@H](CO)O2)c(=O)[nH]c1=O ; strain or isolate: XM-T69SSS ; mutations: RT-T69SSS L210W T215Y ; read by: p24 ; value: <77 µM
N#Cc1ccc(Nc2nccc(Oc3ccc(C(=O)CC(=O)C(=O)O)cc3)n2)cc1 ; strain or isolate: IIIB ; mutations: K103N ; read by: MTT ; value: >42 µM
CCCCNc1nc(N)nc2c1ncn2CCOCP(=O)(O)O ; strain or isolate: IIIB ; read by: cytopathic effect / MTT ; value: 2.15 µg/mL
CCOC(=O)C(=O)CC(=O)c1ccc(Oc2ccnc(Nc3ccc(C#N)cc3)n2)cc1 ; strain or isolate: IIIB ; mutations: Y181C ; read by: MTT ; value: >22 µM
Oc1ccc2cc(Br)ccc2c1CN1CCN(Cc2c(O)ccc3cc(Br)ccc23)CC1 ; read by: MTT ; value: >100 µM
O=C(CSc1nc(CCC2CCCCC2)cc(=O)[nH]1)c1ccc(F)cc1 ; strain or isolate: IIIB ; read by: MTT ; value: 79.9 µM
Nc1ccn([C@H]2CC[C@@H](CO)O2)c(=O)n1 ; strain or isolate: NL4-3 ; value: 0.292 µM
Nc1nc(N)c2ncn(CCOCP(=O)(O)O)c2n1 ; strain or isolate: IIIB ; read by: cytopathic effect / MTT ; value: 2.67 µg/mL
COc1ccc2c(Cc3c[nH]c4ccc(Br)cc34)c(OC(C)=O)ccc2c1 ; read by: MTT ; value: 9 µM
Cc1cn([C@H]2C=C[C@@H](CO)O2)c(=O)[nH]c1=O ; strain or isolate: NL4-3 ; value: 0.962 µM
N#Cc1ccc(Nc2nccc(Oc3cccc(C(=O)CC(=O)C(=O)O)c3)n2)cc1 ; strain or isolate: IIIB ; mutations: Y188L ; read by: MTT ; value: >10 µM
O=C(CSc1nc2ncccc2n1-c1ccc(C2CC2)c2ccccc12)Nc1cccnc1Cl ; strain or isolate: RES056 ; read by: MTT ; value: >0.8 µM
Cc1nnc(C(=O)NC(C)(C)c2nc(C(=O)NCc3ccc(F)cc3)c(O)c(=O)n2C)o1 ; strain or isolate: N119 ; mutations: +Vpx ; value: 0.004 µM

For reference, 6 entries again:

structure | strain or isolate | mutations | read by | value
C#Cc1ccc(Nc2nccc(Oc3c(C)cc(-c4cn(Cc5cccc([N+](=O)[O-])c5)nn4)cc3C)n2)cc1 | IIIB | Y181C | MTT | 4.44 µM
C#Cc1ccc(Nc2nccc(Oc3c(C)cc(-c4cn(-c5ccc(C(=O)OC)cc5)nn4)cc3C)n2)cc1 | IIIB | E138K | MTT | 0.16 µM
CC(C)=CCN1Cc2cccc3[nH]c(=S)n(c23)C[C@@H]1C | 1506-RS (RT-Y188L) | RT-Y188L | cytopathic effect / MTT | >100 µM
Nc1ccn([C@@H]2CO[C@H](CO)S2)c(=O)n1 | HXB2D | - | RT activity | 3 µM
C1CNCCNCCCN(CCCC2CNCCCNCCNCCCN2)CCNC1 | IIIB | - | cytopathic effect / MTT | 1.96 µM
CCCCNc1nc(N)nc2c1ncn2CCOCP(=O)(O)O | IIIB | - | cytopathic effect / MTT | 2.15 µg/mL